Patent US20180016324A1, “Anti-Zika Virus Antibodies and Methods of Use” (Regeneron, published 2018)

B1: H4H25587P (antibody, V domains shown)
VH: EVQLVESGGGLVQPGRSLTLSCAASGFTFDDYVMHWVRQAPGKGLEWVSGISWNSDTIDYADSVKGRFTISRDNAKNSLYLQMNSLRAEDTALYYCAKDRRSWYGGYFDYWGQGTLVTVSS
VL: DIQMTQSPSSLSASVGDRVTITCRASQGISSYLAWYQQKPGKVPKLLIYAASTLQSGVPSRFSGSGSGTDFSLTISSLQPEDVATYYCQKYNSAPLTFGGGTKVEIK
B2: H4H25622P (antibody, V domains shown)
VH: QVQLVESGGGVVQPGRSLRLSCAASGFTFSSYGMHWVRQAPGKGLEWLAIIWYDGTNKQYVDSVKGRFTISRDNSKNTLYLQLNSLRAEDTAVYYCARQDFYYYYGMDVWGQGTTVTVSS
VL: not shown
B3: H4H25617P (antibody, V domains shown)
VH: EVQLVESGGGLVQPGGSLRLSCSASGFTFTTYAMSWVRQAPGRGLEWVSSISGTGVSTYYADSVKGRFTISRDNSKNALYLQMNSLTAEDTAVYYCAKDSGTYHWGQGTLVTVSS
VL: EIVLTQSPATLSLSPGERATLSCRASQSVDSYLAWYQQKPGQAPRLLIYDASNRATGIPARFSGSGSGTDFTLTISSLESEDFAVYYCQQRRNWPQFTFGGGTKVEIK
B4: H4H25710N (antibody, V domains shown)
VH: EVQLLESGGGLVQPGGSLRLSCAASGFTVSNNYMSWVRQAPGKGLEWVSVIYSGGRTNYGDSVKGRFTISRDNSKNTLYLQMNSLRAEDTAVYYCARENYDFWSGDPYGWDVWGQGTTVTVSS
VL: DIQMTQSPSSLSASVGDRVTITCRASQDISNYLAWFQQKPGKAPKSLIYGASSLQRGVPSKFRGSGSGTDFTLTISSLQPEDFASYYCQQYNSYPYTFGQGTKLEIK
B5: H2aM25710N (antibody, V domains shown)
VH: B4 VH
VL: B4 VL
B6: H2aM25709N (antibody, V domains shown)
VH: B4 VH with L5V, N31S
VL: B4 VL with R63S, S85T
B7: H2aM25711N (antibody, V domains shown)
VH: B4 VH with L5V, N31S
VL: B4 VL with R63S, S85T
B8: H4H25633P (antibody, V domains shown)
VH: EVQLVESGGGLVQPGRSLRLSCAASGFTFDDYAIHWVRQAPGKGLEWVSGISWNSGYLGYADSVKGRFTISRDNAKNSLYLQMNSLRAEDTAFYYCAKDVAWGSVRHVFEIWGQGTMVTVSS
VL: EIVLTQSPGTLSLSPGERATLSCRASQTITGNQLAWYQQKPGQAPRLLIYFTSSRATGIPDRFSGSGSGTDFSLTISRLEPEDFAVYFCQQFGYSPWTFGQGTKVEIK
B9: H4H25703N (antibody, V domains shown)
VH: QVQLVESGGGVVQPGRSLRLSCAASGFTFNYYGMHWVRQAPGKGLEWVAVISYDGTNKYYADSVKGRFTTSRDNSKNTLYLQMNSLRAEDTALYYCARDRGGRFDYWGQGIQVTVSS
VL: EIVLTQSPDTLSLSPGERATLSCRASQSVSSNYLAWYQQKPGQAPRLLIYGASSRATGIPDRFSGSGSGTDFTLTISRLEPEDFAVYYCQRYGTSPLTFGGGTKVEIKR
B10: H4H25619P (antibody, V domains shown)
VH: QVQLVESGGGVVQPGRSLRLSCTASGFTFSTYGMHWVRHVPGKGLEWVAIVWYDGSDKSYAASVKGRFTISRDNSKNTLFLQMNSLRAEDTAVYYCARQGTYYYYGMDVWGQGTTVTVSS
VL: DIQMTQSPSSLSASVGDRVTITCRSSQTITNYLNWYQQRPGKAPKLLIYAASSLQSGVPSRFSGSGSGTDFTLTISSLQPEDFATYYCQQSYSTPPITFGQGTKLEIKR
B11: H4H25630P (antibody, V domains shown)
VH: QVQLVQSGAEVKRPGASVKVSCKASDYTFTDYGISWVRQAPGQGLEWMGWFNTYNGNTNYAQKFQGRITMTTDTSTSTAYMELRSLRSDDTAIYYCARDWGLHYFENWGQGTLVTVSS
VL: EIVLTQSPGTLSLSPGERATLSCRASQSVRNSYLAWYQQKPGQAPRLLIYGASSRDTGIPDRFSGSGSGTDFTLTISRLEPEDFAVYYCQQYGRSPWTFGQGTKVEIK
B12: H4H25704N (antibody, V domains shown)
VH: QVQLVESGGGVVQSGRSLRLSCAASGFTFIYYGMHWVRQAPGKGLEWVAVISYDGSDRYYADSVKGRFTISRDDSKNTLYLQMNSLRPEDTAVYYCAKDRGGRFDYWGQGTLVTVSS
VL: B11 VL with R30N, S32N, D56A, S64G, S66G, Q91R, R94N, W97L, Q101G
B13: H4H25637P (antibody, V domains shown)
VH: QLQLQESGPGLVKPSETLSLTCTVSGDSISSSNYFWGWIRQPPGKGLEWIGNIYYSGDTYYNPSLKSRVTMSVDTSKKQFSLKLRSVTAADTAVYYCARGRPYYDFWSGYFDYWGQGTLVTVSS
VL: B11 VL with S22P, R30S, N31S, D56A, S64R, R94T, S95A
B14: H4H25598P (antibody, V domains shown)
VH: EVQLVESGGGLVQPGGSLRLSCAASGFTVSSNYMSWVRQAPGSGLEWVSVIYSGGITHYIGSVKGRFTISRHNSKNTLYLQMNSLRAEDTAMYYCARERYSGITGNPYGFDFWGQGTMVTVSS
VL: DIQLTQSPSFLSASVGDRVTITCWASQDISSYLAWYQQKPGIAPKLLIYSASTLQSGVPSSFSGSGSGTEFTLTISSLQPEDFATYYCQQLNIYPFTFGPGTKVDIK
B15: H4H25602P (antibody, V domains shown)
VH: B14 VH with I60V, G61D, F112I
VL: B14 VL with S50A, S61R
B16: H4H25708N (antibody, V domains shown)
VH: EVQLLESGGDLVQPGGSLRLSCAASGFTFSSYAMSWVRQAPGKGLEWVSAISVSGDSTYYADSVKGRFTISRDNSKNTLYLQMNSLRAEDTAVYYCAKDRGYTWNYYYYGMDVWGQGTTVTVSS
VL: not shown
B17: H4H25640P (antibody, V domains shown)
VH: QVQLVESGGGVVQPGRSLRLSCAASGFTFSYYGMHWVRQAPGKGLEWVAVILYDGSNKFYSDSVKGRFTISRDNSRNTLYLQMNSLRLEDTAVYYCAKDYGGRFDYWGQGTLVTVSS
VL: EIVLTQSPGTLSLSSGERATLSCRASQSVSNKYLAWYQQKPGQVPRLLIYGASNRATGIPDRFSGSGSGTDFTLTINRLEPEDFAVFYCQQYGSTPSTFGQGTKVEIK
B18: H4H25591P (antibody, V domains shown)
VH: B12 VH with S14P, I30S, Y32S, S56I, D57N, R58K, D74N, Y106P
VL: B1 VL with S31N, K45N, A50G, Q55H, S72T, E81A
B19: H4H25592P (antibody, V domains shown)
VH: B17 VH with Y32S, L52S, F59Y, S61A, R76N, T78I, L88A, Y100W, Y106P
VL: B1 VL with K39I, Q55H, S72T, E81A
B20: H4H25626P (antibody, V domains shown)
VH: QVQLVESGGGVVQPGRSLRLSCAASGFTFSSYGMHWVRQAPGKGLEWVALIWYDGSDKHYVDSMKGRFTISRDNSKNTLYLQMNSLRADDTAVYYCARQAYYFYYGMDVWGQGTTVTVSS
VL: not shown
B21: H4H25566P (antibody, V domains shown)
VH: QVQLQESGPGLVKPSQTLSLTCTVSGGSISSGGYYWSWIRQHPGKGLEWIGYIYYSGSTYYNPSLKSRITISIDTSKNQFSLKLTSVTAADTAVYYCARGQQLLSFDYWGQGTLVTVSS
VL: DIQMTQSPSSVSASVGDRVTITCRASQGISRWLAWYQLKPGKPPTPLIYAASSLQSGAPSRFSGRGSGTDFTLTISSLQPEDFATYYCQQANSFPYTFGQGTKLEIK

These binders were tested against T1, ZIKV prM/E polyprotein on virus-like particles (VLPs) from HEK293T/17 cells (Zika virus, UniProt A0A024B7W1 123-795) (assay: MSD ECL, VLPs on plate).
T1 construct: also called ZIKV prM/E VLPs; Zika prM/E VLPs

In order of rising “Ratio of RLU Zika VLP/VSV G VLP at 11.1 nM” value:
1. B17  2
2. B18  3
3. B12  4
4. B16  4
5. B15  5
6. B21  6
7. B2  7
8. B10  7
9. B14  7
10. B19  7
11. B3  8
12. B9  8
13. B8  9
14. B11  9
15. B13  9
16. B20  10
17. B4  13
18. B1  14
19. B5  107
20. B6  244
21. B7  263

Positions count from the first letter of the chain named.
